Assay results taken from patent US20170209564A1 (Janssen / Centocor, published 2017).

B1: monoclonal antibody CR9114 (antibody, V domains shown)
VH: QVQLVQSGAEVKKPGSSVKVSCKSSGGTSNNYAISWVRQAPGQGLDWMGGISPIFGSTAYAQKFQGRVTISADIFSNTAYMELNSLTSEDTAVYFCARHGNYYYYSGMDVWGQGTTVTVSS
VL: SYVLTQPPAVSGTPGQRVTISCSGSDSNIGRRSVNWYQQFPGTAPKLLIYSNDQRPSVVPDRFSGSKSGTSASLAISGLQSEDEAEYYCAAWDDSLKGAVFGGGTQLTVL
B1 was tested. Which “EC50 (read off the curve)” value 163 did it give?
Its value is ~0.1 µg/mL.

And the “EC50 (read off the curve)” value 164?
Its value is ~0.08 µg/mL.

And the “EC50 (read off the curve)” value 165?
Its value is ~0.05 µg/mL.
